A mixed list of measured activities; the numbers were collected in NIAID ChemDB.

Common to all: growth or infection tests; agent: Rhinovirus; cells: HeLa; endpoint: EC50

An empty or dashed field is not shown. Neighbouring rows are from separate reports. ECn: concentration that inhibits the pathogen or its effect by n%.

smiles	strain or isolate	read by	result
CCOC(=O)CCCN1C(=O)c2ccccc2C(C(=O)c2ccccc2)C1=O	Serotype 14	plaque count	15.8 µM
CS(=O)(=O)c1ccc(Cc2ccc(Cl)c(Cl)c2)nc1	TYPE 4	cytopathic effect	>10 µg/mL
N#Cc1cc([N+](=O)[O-])ccc1Oc1ccc(Cl)c(Cl)c1	TYPE 8	cytopathic effect	0.2 µg/mL
Cc1nc(-c2cc(C)c(OCCCc3cc(C(F)(F)F)no3)c(C)c2)no1	Serotype 30	cytopathic effect	0.065 µg/mL
CCOc1cc(OC)ccc1-c1cc(N(CC)CC)no1	Serotype 86 (group A)	cytopathic effect	>90 µM
CCOC(=O)c1ccc(OCCC2CCN(c3ccc(C)nn3)CC2)cc1	Serotype 14	cytopathic effect	<0.1 µg/mL
CC(=O)c1ccc(Oc2ccc(C#N)cn2)cc1	TYPE 2	cytopathic effect	210 µM
CCOC(=O)c1ccc(OCCCCC(=O)c2ccc(C)c(Cl)c2)cc1	Serotype 2	cytopathic effect	>267 µM
CNC(=O)C(c1cccc(F)c1)c1ccc2nc(N)n(S(=O)(=O)N3CCOCC3)c2c1	1059 (serotype 14)	plaque count	0.05 µg/mL
Cc1cc(CCCCCOc2c(C)cc(-c3nnc(C)o3)cc2C)on1	serotype 2 1A 1B 6 14 21 22 15 25 30 50 67 89 86 41	plaque count	0.053 µg/mL
C#CCOc1cc(OC)ccc1-c1cc(N(CC)CC)no1	Serotype 89 (group B)	cytopathic effect	>40 µM
Cc1ccc(C(=O)CCCCOc2ccc(C3=NCC(C)O3)cc2Cl)s1	TYPE 14	cytopathic effect	4.9 µM
N#Cc1ccc2c(c1)CCC(c1ccc(Cl)cc1)O2	TYPE 1B	plaque count	0.0085 µM
Cc1ccc(C(=O)CCCCOc2ccc(C3=NCCO3)cc2)s1	Serotype 2	cytopathic effect	1.3 µM
CNC(=O)C(c1ccc2nc(N)n(C3CCCC3)c2c1)c1ccccc1F	1059 (serotype 14)	plaque count	0.03 µg/mL
c1cc(C2CCc3cc(C4=NCCO4)ccc3O2)ccc1C1=NCCO1	TYPE 1B	cytopathic effect	1.79 µM
CC(=O)Oc1ccc(/C=C/C(=O)Oc2c(-c3ccc(Cl)c(Cl)c3)oc3ccccc3c2=O)cc1OC(C)=O	Serotype 1B	plaque count	>0.39 µM
CS(=O)(=O)c1cnc2c(c1)CCC(c1ccc(Cl)c(Cl)c1)O2	Serotype 1A	plaque count	<0.5 µg/mL
CSc1ccc(C(=O)CCCCOc2ccc(C#N)cc2)cc1	Serotype 14	cytopathic effect	>307 µM
Cc1ccc(C(=O)CCCCCCOc2ccc(C3=NCCO3)cc2Cl)s1	TYPE 14	cytopathic effect	1.33 µM
CNC(=O)C(c1ccc2nc(N)n(S(=O)(=O)C(C)C)c2c1)c1cccc(F)c1F	1059 (serotype 14)	plaque count	0.01 µg/mL
CCCc1cc(CCCOc2c(C)cc(-c3noc(C)n3)cc2C)on1	serotype 2 1A 1B 6 14 21 22 15 25 30 50 67 89 86 41	plaque count	0.018 µg/mL
CS(=O)(=O)CCCN1C(=O)c2ccccc2C(C(=O)c2ccccc2)C1=O	Serotype 14	plaque count	27.3 µM
Clc1ccc(C2=CCc3cc(Br)cnc3O2)cc1Cl	TYPE 9	cytopathic effect	>14 µM
COC(=O)c1cc(CCCOc2c(C)cc(-c3noc(C)n3)cc2C)on1	Serotype 21	cytopathic effect	0.004 µg/mL
Cc1ccc(C(=O)CCCCOc2ccc(C3=NC(C)CO3)cc2)s1	TYPE 14	cytopathic effect	0.56 µM
Clc1ccc(C2CCc3cc(C4=NCCO4)ccc3O2)cc1	TYPE 1B	cytopathic effect	0.36 µM
CN(C)c1cc(-c2ccc(O)cc2O)on1	Serotype 14	cytopathic effect	>227 µM
CC(C)n1c(N)nc2ccc(C(C(N)=O)c3cccc(F)c3F)cc21	1059 (serotype 14)	plaque count	0.07 µg/mL
CCOC(=O)c1ccc(OCCCCC(=O)c2ccc(C)c(C)c2)cc1	Serotype 14	cytopathic effect	10 µM
O=c1c(O)c(-c2ccc(Cl)cc2)oc2ccccc12	Serotype 1B	plaque count	1.27 µM
N#Cc1ccc(C2CCc3cc(C#N)ccc3O2)cc1	Serotype 1B	cytopathic effect	0.32 µM
COc1cc(C(=O)Oc2c(-c3ccc(Cl)cc3)oc3ccccc3c2=O)cc(OC)c1OC(C)=O	Serotype 14	plaque count	>1.56 µM
CC(C)S(=O)(=O)n1c(N)nc2ccc(/C(=N/O)c3ccccc3)cc21		cytopathic effect	0.04 µg/mL
CCN(CC)c1cc(-c2ccc(OC)cc2OC)on1	Serotype 63 (group B)	cytopathic effect	>362 µM
Cc1cc(CCCCCOc2c(Cl)cc(C3=NCCO3)cc2Cl)on1	TYPE 4	plaque count	1.5 µg/mL
CCOC(=O)c1ccc(OCCCCC(=O)c2ccc(F)cc2)cc1	Serotype 14	cytopathic effect	2.1 µM
Clc1ccc(C2CCc3cc(Cl)cnc3O2)cc1	TYPE 1A	cytopathic effect	0.07 µM
Cc1ccc(C(=O)CCCCOc2ccc(C3=N[C@@H](C)CO3)cc2)s1	TYPE 14	cytopathic effect	0.28 µM
N#Cc1ccc(C2=Cc3cc(C#N)ccc3OC2)cc1	Serotype 1B	plaque count	5.76 µM
CC(C)S(=O)(=O)n1c(N)nc2ccc(C(C(N)=O)c3ccccc3F)cc21	1059 (serotype 14)	plaque count	0.03 µg/mL
COc1cc(/C=C/C(=O)Oc2c(-c3ccc(Cl)c(Cl)c3)oc3ccccc3c2=O)ccc1OC(C)=O	Serotype 14	plaque count	>0.39 µM
CCN(CC)c1cc(-c2ccc(OC)cc2O)on1	Serotype 14	cytopathic effect	>381 µM
CN=C(c1ccccc1)c1ccc2nc(N)n(S(=O)(=O)C(C)C)c2c1	TYPE 14	cytopathic effect / XTT	0.04 µg/mL
CCS(=O)(=O)c1ccc(NCc2ccc(Cl)cc2)nc1C#N	TYPE 64	cytopathic effect	6.3 µg/mL
N#Cc1ccc(C2COc3ccccc3C2)cc1	Serotype 1B	plaque count	1.47 µM
Cc1ccc(C(=O)CCCCCCOc2ccc(C3=NCC(C)O3)cc2)s1	TYPE 2	cytopathic effect	2.07 µM
CSCCCN1C(=O)Cc2ccccc2C1=O	Serotype 14	plaque count	19.6 µM
N#Cc1ccc(Oc2ccc(Cl)c(Cl)c2)nc1	TYPE 1A	cytopathic effect	5 µM
N#Cc1ccc2c(c1)CC(c1ccccc1)CO2	Serotype 1B	plaque count	0.58 µM
CCCc1cc(CCCOc2c(C)cc(-c3nnc(C)o3)cc2C)on1	serotype 2 1A 1B 6 14 21 22 15 25 30 50 67 89 86 41	plaque count	0.036 µg/mL
Cc1ccc(C(=O)CCCCOc2ccc(C3=NCCO3)cc2)cc1Cl	Serotype 14	cytopathic effect	43.4 µM
Nc1nc2c(ncn2COC(CO)CO)c(=O)[nH]1	TYPE 2	cytopathic effect	>400 µg/mL
COc1ccc(-c2cc(N3CCCC3)no2)c(O)c1	Serotype 15 (group B)	cytopathic effect	>384 µM
COC(=O)C(Cc1ccc(OCCCCC(=O)c2ccc(C)s2)cc1)NC(C)=O	TYPE 2	cytopathic effect	>86 µM
CCOC(=O)/C=C/[C@H](CCC(N)=O)NC(=O)[C@H](Cc1ccccc1)n1ccc(C)c(NC(=O)c2cc(C)on2)c1=O	14	XTT	>0.016 µM
c1ccc2c(c1)CCC(c1ccc(C3=NCCO3)cc1)O2	TYPE 1B	plaque count	0.56 µM

The first 5 rows once more:

smiles,strain or isolate,read by,result
CCOC(=O)CCCN1C(=O)c2ccccc2C(C(=O)c2ccccc2)C1=O,Serotype 14,plaque count,15.8 µM
CS(=O)(=O)c1ccc(Cc2ccc(Cl)c(Cl)c2)nc1,TYPE 4,cytopathic effect,>10 µg/mL
N#Cc1cc([N+](=O)[O-])ccc1Oc1ccc(Cl)c(Cl)c1,TYPE 8,cytopathic effect,0.2 µg/mL
Cc1nc(-c2cc(C)c(OCCCc3cc(C(F)(F)F)no3)c(C)c2)no1,Serotype 30,cytopathic effect,0.065 µg/mL
CCOc1cc(OC)ccc1-c1cc(N(CC)CC)no1,Serotype 86 (group A),cytopathic effect,>90 µM